According to paper PMC12658140:

Biological target: H3N8 A/mallard/Alberta/362/2017 HA ectodomain (influenza A virus H3N8 A/mallard/Alberta/362/2017)
Assay: cryo-EM structure

H3N8 A/mallard/Alberta/362/2017 HA ectodomain (domain or fragment)
stoichiometry N: 3
